Measured values from several laboratories, pooled; numbers as filed in NIAID ChemDB.

All rows: cytotoxicity tests; endpoint: CC50

Two numbers with a dash give a range or band.

smiles	cells	read by	value
COc1ccc2c(c1)c(Sc1ccc(N)cc1)cc(=O)n2C	Huh-Luc-Neo		10–100 µM
COc1ccc(/C=N/NC(=O)Nc2cccc3nsnc23)c(Cl)c1OC	Cf2Th-CD4/CCR5	luminescence	>112 µM
Cc1cn([C@@H]2O[C@H](CO)[C@@H](O)[C@@H]2O)c(=O)[nH]c1=O	CCRF-HSB-2		232 µM
CCC1(Cc2ccccc2)OS(=O)(=O)C=C1OCc1ccc(Cl)cc1	HEL fibroblasts		<200 µM
N=c1cc2c(cn1-c1ccc(Br)cc1)C(=O)c1ccccc1C2=O	J774A.1 macrophages	neutral red	15.34 µM
Nc1ncnc2c1ncn2[C@@H]1S[C@H](CO)[C@@H](O)[C@@H]1F	CCRF-HSB-2		189 µM
COC(=O)[C@H](C)NP(=O)(OCC1C/C1=C/n1cnc2c(=O)[nH]c(N)nc21)Oc1ccccc1	MEF		>206 µM
Cc1c(C(=O)Nc2ccc(F)c(Br)c2)c(C)n(C)c1C(=O)C(=O)NC(C)(C)C	HepG2	MTT	>30 µM
CCOc1ccc(Cl)cc1-c1oc2ccccc2c(=O)c1O	CHO	MTS / absorbance	25.5 µM
Cc1ccc(Sc2cc(=O)n(C)c3cc(C)c(C)cc23)cc1	Huh-Luc-Neo		>100 µM
CCCN(Cc1cccc(OCCCCCC(=O)O)c1)C(=O)c1ccc(-c2ccc3c(c2)OCO3)cc1	RAJI		>20 µM
CCC1(NC(=O)C(=O)c2c(C)c(C(=O)Nc3ccc(F)c(C)c3)c(C)n2C)CCN(c2cnccn2)CC1	HepG2	MTT	>30 µM
COc1ccc(Br)cc1C1CC(=O)c2ccccc2O1	CHO	MTS / absorbance	25.5 µM
C[C@@H]1[C@H](O)[C@@H](CO)O[C@H]1n1ccc(N)nc1=O	Madin-Darby bovine kidney	MTT / crystal violet	>100 µg/mL
O=c1[nH]c(=O)n([C@H]2C[C@H](O)[C@@H](CO)O2)cc1/C=C/Br	HELF		145 µg/mL
CC(=O)OCC(C)(O)C(C)C(C)C(OC(C)=O)C1OC12C(O)CC1C3CCC4CC(=O)CCC4C3CCC12COC(C)=O	P-388	MTT	>50 µg/mL
O=c1c2ncn(COC(CO)CO)c2nc2[nH]c(-c3ccc(F)cc3)cn12	OST TK-		278 µg/mL
Nc1ncnc2c1ncn2[C@H]1C[C@]12C[C@H]2CO	BSC-1		>100 µM
CCOC(=O)CCCCCOc1cccc(CN(C(=O)c2ccc(-c3cccc(N(C)C)c3)cc2)C(C)C)c1	HepG2		>20 µM
CC(=O)Cc1cn([C@H]2C[C@H](O)[C@@H](CO)O2)c(=O)[nH]c1=O	HELF		>800 µg/mL
Nc1nc(N)c2ncn([C@@H]3S[C@H](CO)[C@@H](O)[C@@H]3F)c2n1	CCRF-HSB-2		7 µM
CN(C(=O)[C@H](Cc1ccccc1)NC(=O)CC1NC(=O)NC1=O)c1cccc(F)c1	TZM-gfp	XTT	>50 µM
Cc1cn([C@@H]2O[C@H](CO)[C@@H](CO)[C@@H]2F)c(=O)[nH]c1=O	PBM		≥100 µM
CN[C@H](C(=O)C[C@H](CCC[C@@H](CO)N(C(C)C)S(=O)(=O)c1ccc(N)cc1)C(F)(F)F)C(c1ccccc1)c1ccccc1	T lymphoid cells	microscopy	>10 µM
C#CCCC(=O)CCCc1ccc(OC)c(OC)c1	RAJI		<7.5 µM
CCc1cn([C@@H]2S[C@H](CO)[C@@H](O)[C@@H]2F)c(=O)[nH]c1=O	CCRF-HSB-2		>344 µM
Cc1ccc(-n2cc3c(cc2=N)C(=O)c2ccccc2C3=O)cc1	J774A.1 macrophages	neutral red	18.15 µM
COc1ccc(/C=N/NC(=O)Nc2cccc3nsnc23)c(O)c1	Cf2Th-CD4/CCR5	luminescence	>112 µM
COC(=O)N[C@@H](Cc1cccc2ccccc12)C(=O)N[C@H](CCC[C@@H](CO)N(CCC(C)C)S(=O)(=O)c1ccc(N)cc1)C1CC1	T lymphoid cells	microscopy	>10 µM
O=c1[nH]c(=O)n([C@@H]2O[C@H](CO)[C@@H](O)[C@@H]2O)cc1I	CCRF-HSB-2		>270 µM
N=c1cc2c(cn1-c1ccc(Cl)cc1)C(=O)c1ccccc1C2=O	J774A.1 macrophages	neutral red	28.51 µM
Nc1nc(NC2CC2)c2ncn(C=C3CC3CO)c2n1	MEF		220 µM
O=C1NC(=O)/C(=C/c2ccc(-c3ccc4c5ccccc5c5ccccc5c4c3)cc2)S1	HepG2-NTCP	MTS	>10 µM
COc1c2c(c(OC)c3ccccc13)CN(c1ccc([N+](=O)[O-])cc1)C(=N)C2	J774A.1 macrophages	neutral red	49.23 µM
O=C(N/N=C/c1ccccc1O)Nc1cccc2nsnc12	Cf2Th-CD4/CCR5	luminescence	<0.5 µM
Cc1cc2c(Sc3ccc(F)cc3)cc(=O)n(C)c2cc1C	Huh-Luc-Neo		>100 µM
Cc1cccc(NC(=O)c2c(C)c(C(=O)C(=O)NC(C)(C)C)n(C)c2C)c1F	HepG2	MTT	>30 µM
N=c1cc2c(cn1-c1cccc(C(=O)O)c1)C(=O)c1ccccc1C2=O	J774A.1 macrophages	neutral red	153 µM
C/C=C/c1cc(=O)c(C(=O)c2c(OC)cc(OC)cc2C(=O)OC)co1	Huh7.5.1	MTT	>50 µM
Cc1c(-c2ccc(C(F)(F)F)cc2)[nH]c2nc3c(ncn3COCCO)c(=O)n12	OST TK-/HSV-1 TK+		0.35 µg/mL
COCCOCC(=O)Nc1ccc(Sc2cc(=O)n(C)c3ccccc23)cc1	Huh-Luc-Neo		>100 µM
Cc1cn(CC(=O)N[C@@H](Cc2ccccc2)C(=O)N(C)c2cccc(F)c2)c(=O)[nH]c1=O	TZM-gfp	XTT	>50 µM
CC(=O)OCC12CCC3C(CCC4CC(O)CCC43C)C1CC(O)C21OC1C(OC(C)=O)C(C)C(C)C(C)(C)OC(C)=O	P-388	MTT	>50 µg/mL
COC(=O)N[C@H](C(=O)N[C@@H](C)CCC[C@@H](CO)N(CC(C)C)S(=O)(=O)c1ccc(CO)cc1)C(c1ccccc1)c1ccccc1	T lymphoid cells	microscopy	>10 µM
Cc1cc(NC(=O)c2c(C)c(C(=O)C(=O)NC3CCC(O)CC3)n(C)c2-c2cccnc2)ccc1F	HepG2	MTT	>30 µM
COC(=O)N[C@H](C(=O)N[C@H](CCC[C@@H](CO)N(CCC(C)C)S(=O)(=O)c1ccc(CO)cc1)C(C)C)C(c1ccccc1)c1ccccc1	T lymphoid cells	microscopy	>10 µM
Cc1[nH]c2ccccc2c1CCC(=O)N[C@@H](Cc1ccccc1)C(=O)N(C)c1ccccc1	TZM-gfp	XTT	76 µM
Cn1c(=O)cc(Sc2ccc(F)cc2)c2ccccc21	Huh-Luc-Neo		>100 µM
Cc1cc(NC(=O)c2c(C3CC3)c(C(=O)C(=O)NC3(C)CC(O)C3)n(C)c2C)ccc1F	HepG2	MTT	>30 µM
O=C(N/N=C/c1c(O)cc(O)cc1O)Nc1cccc2nsnc12	Cf2Th-CD4/CCR5	luminescence	64 µM
O=c1[nH]c(=O)n([C@@H]2O[C@H](CO)[C@@H](O)[C@@H]2F)cc1/C=C/Br	CCRF-HSB-2		>285 µM
COC(=O)c1cc(O)cc(OC)c1C(=O)c1c(O)cc(C)c(Cl)c1O	Huh7.5.1	MTT	>50 µM
CCc1cn([C@@H]2O[C@H](CO)[C@@H](O)[C@@H]2F)c(=O)[nH]c1=O	CCRF-HSB-2		>366 µM
COC(=O)N[C@H](C(=O)N[C@H](CCC[C@@H](CO)N(CCC(C)C)S(=O)(=O)c1ccc(C(C)=O)cc1)C1CC1)C(c1ccc(F)cc1)c1ccc(F)cc1	T lymphoid cells	microscopy	>10 µM
COC(=O)Cc1cn([C@H]2C[C@H](O)[C@@H](CO)O2)c(=O)[nH]c1=O	HELF		400 µg/mL
COC(=O)[C@H](C)NP(=O)(OC[C@H]1C/C1=C/n1cnc2c(OC)nc(N)nc21)Oc1ccccc1	MEF		126 µM
O=C(N/N=C/c1cccc(F)c1)Nc1cccc2nsnc12	Cf2Th-CD4/CCR5	luminescence	69.4 µM
Cc1cc(C=O)cc(C)c1Oc1cc(Nc2ccc(C#N)cc2)nc2ccccc12	HL-60	MTT	4.5 µM
COC(=O)N[C@H](C(=O)N[C@H](CCC[C@@H](CO)N(CCC(C)C)S(=O)(=O)c1ccc2ncsc2c1)C1CC1)C(c1ccccc1)c1ccccc1	T lymphoid cells	microscopy	>10 µM
O=C1NC(=O)/C(=C/c2ccc(-c3ccccc3)cc2)S1	HepG2-NTCP	MTS	23.9 µM
Cc1c(C(=O)Nc2ccc(B(O)O)cc2)c(C)n(C)c1C(=O)C(=O)NC(C)(C)C	HepG2	MTT	>30 µM
CN(C(=O)[C@H](Cc1ccccc1)NC(=O)CC1NC(=O)NC1=O)c1ccccc1	TZM-gfp	XTT	>50 µM
Cn1c(=O)cc(Sc2ccccc2F)c2ccccc21	Huh-Luc-Neo		10–100 µM
CCCN(Cc1ccccc1OCC(=O)O)C(=O)c1ccc(-c2ccc3c(c2)OCO3)cc1	RAJI		>20 µM
O=C1NC(=O)/C(=C/c2ccc(OCc3ccc(-c4ccccc4)cc3)cc2)S1	HepG2-NTCP	MTS	>10 µM
CCC1(Cc2ccccc2)OS(=O)(=O)C=C1OCc1ccc(C)cc1	HEL fibroblasts		41.5 µM
Cc1cn([C@@H]2O[C@H](CO)[C@@H](O)[C@@H]2F)c(=O)[nH]c1=O	CCRF-HSB-2		1.73 µM
COc1c2c(c(OC)c3ccccc13)CN(c1ccccc1)C(=N)C2	J774A.1 macrophages	neutral red	56.55 µM
O=c1c2ncn(COCCO)c2nc2[nH]c(-c3ccccc3)c(Cc3ccccc3)n12	OST TK-		252 µg/mL
CCC1(Cc2ccccc2)OS(=O)(=O)C=C1OCC(=O)OC	HEL fibroblasts		>200 µM
O=c1c2ncn(COCCO)c2nc2[nH]c(-c3ccccc3)c(Cc3ccc(F)cc3)n12	OST TK-/HSV-1 TK+		0.73 µg/mL
COc1ccc(Br)cc1-c1oc2cccc(OC)c2c(=O)c1O	CHO	MTS / absorbance	25.5 µM
CCN([C@H](CO)CCC[C@H](C)NC(=O)[C@@H](NC(=O)OC)C(c1ccccc1)c1ccccc1)S(=O)(=O)c1ccc(CO)cc1	T lymphoid cells	microscopy	>10 µM
C=Cc1cn([C@@H]2O[C@H](CO)[C@@H](O)[C@@H]2F)c(=O)[nH]c1=O	HELF		11 µg/mL
Cc1cc(CCCOc2c(C)cc(-c3noc(C(F)(F)F)n3)cc2C)on1	Madin-Darby bovine kidney	MTT / crystal violet	>100 µg/mL
COc1cc(/C=N/NC(=O)Nc2cccc3nsnc23)ccc1O	Cf2Th-CD4/CCR5	luminescence	0.8 µM
Cc1ccc2c(c1)c(Sc1ccc(F)cc1)cc(=O)n2C	Huh-Luc-Neo		10–100 µM
O=C(O)c1cc(-c2ccco2)nc2ccccc12	BJ		>20 µM
CCc1cn([C@H]2C[C@H](O)[C@@H](CO)O2)c(=O)[nH]c1=O	HELF		40 µg/mL
COc1ccc(Br)cc1-c1cc(=O)c2c(OCc3ccccc3)cccc2o1	CHO	MTS / absorbance	25.5 µM
Nc1nc(-c2ccc(NC(=O)CNCc3ccccc3)cc2)cs1	BHK-21/C13		>100 µM
Nc1nc2c(ncn2C=C2CC2CO)c(=O)[nH]1	MEF		>429 µM
Cc1cc(NC(=O)c2c(C)c(C(=O)C(=O)N[C@H]3CCN(CC(=O)O)C3)n(C)c2C)ccc1F	HepG2	MTT	>30 µM
Cc1ccc2c(c1)c(Sc1ccc(N)cc1)cc(=O)n2C	Huh-Luc-Neo		>100 µM
Nc1nc2c(ncn2[C@@H]2O[C@H](CO)[C@@H](O)[C@@H]2O)c(=O)[nH]1	CCRF-HSB-2		9.9 µM
COc1cc(OC)cc(-c2ccc(C(=O)N(Cc3cccc(OCCCCCC(=O)OC(=O)O)c3)C(C)C)cc2)c1	HEK 293		>20 µM
Cc1cc(NC(=O)c2c(C(C)C)c(C(=O)C(=O)NC3CCC(S(C)(=O)=O)CC3)n(C)c2C)ccc1F	HepG2	MTT	>30 µM
O=C1NC(=O)/C(=C/c2ccc(-c3ccc(-c4cccc5ccccc45)cc3)cc2)S1	HepG2-NTCP	MTS	25.5 µg/mL
COc1c2c(c(OC)c3ccccc13)CN(c1ccc(Br)cc1)C(=N)C2	J774A.1 macrophages	neutral red	21.01 µM
CCCc1cc(=O)oc2c3c(c4c(c12)OC(C)(C)CC4)O[C@@H](C)[C@H](C)[C@@H]3O	MM		10–20 µM
COc1c(C)c2c(c(O)c1CC(=O)O)C(=O)OC2	Madin-Darby bovine kidney	MTT / crystal violet	>100 µg/mL

The last 5 rows once more:

smiles | cells | read by | value
Cc1cc(NC(=O)c2c(C(C)C)c(C(=O)C(=O)NC3CCC(S(C)(=O)=O)CC3)n(C)c2C)ccc1F | HepG2 | MTT | >30 µM
O=C1NC(=O)/C(=C/c2ccc(-c3ccc(-c4cccc5ccccc45)cc3)cc2)S1 | HepG2-NTCP | MTS | 25.5 µg/mL
COc1c2c(c(OC)c3ccccc13)CN(c1ccc(Br)cc1)C(=N)C2 | J774A.1 macrophages | neutral red | 21.01 µM
CCCc1cc(=O)oc2c3c(c4c(c12)OC(C)(C)CC4)O[C@@H](C)[C@H](C)[C@@H]3O | MM |  | 10–20 µM
COc1c(C)c2c(c(O)c1CC(=O)O)C(=O)OC2 | Madin-Darby bovine kidney | MTT / crystal violet | >100 µg/mL

An empty or dashed field is not shown. CCn: concentration that lowers growth or viability of the cells by n%. Conditions beyond the fields shown may differ between rows.